Compound potency records, mixed from different reports. Data source: NIAID ChemDB in PubChem.

Shared fields: growth or infection tests; species: Herpes simplex virus 2; cells: PRK; method: cytopathic effect; read-out: EC50

An empty or dashed field is not shown. Neighbouring rows are from separate reports. ECn is the concentration giving n% inhibition of infection, replication or growth.

compound | strain | value
[N-]=[N+]=NCc1cn([C@H]2C[C@H](O)[C@@H](CO)O2)c(=O)[nH]c1=O | G | 10 µg/mL
C=CCc1nc(C)n2c(=O)[nH]cnc12 | G | >100 µg/mL
[N-]=[N+]=N[C@H]1[C@@H](F)[C@H](n2cnc3c(N)ncnc32)O[C@@H]1CO | G | >200 µg/mL
O=c1[nH]c(=O)n([C@@H]2O[C@H](CO)[C@@H](O)[C@@H]2F)cc1I | G | <0.02 µg/mL
CCCc1cn([C@H]2C[C@H](O)[C@@H](CO)O2)c(=O)[nH]c1=O | LYONS | 4.8 µg/mL
Nc1nc(Cl)c2ncn(COCCO)c2n1 |  | 20 µg/mL
O=c1[nH]c(=O)n(C2CC(CO)[C@H](O)C2)cc1I | G | 20 µg/mL
Nc1ncnc2c1ncn2C[C@H](O)CO | LYONS | >400 µg/mL
[N-]=[N+]=N[C@H]1[C@@H](F)[C@H](N2C=CC(N)NC2=O)O[C@@H]1CO | G | >400 µg/mL
C=CCc1ncn2c(=O)[nH]c(NC(C)=O)nc12 | G | >200 µg/mL
CN(C)c1ncnc2c1ncn2COCCO |  | >400 µg/mL
Nc1nc(=O)n([C@H]2C[C@H](O)[C@@H](CO)O2)cc1/C=C/Cl | G | 20 µg/mL
NC1CCCON2CCc3c([nH]c4ccccc34)[C@H]12 | G | 2 µg/mL
O=c1[nH]c(=O)n([C@H]2C[C@H](O)[C@@H](CO)O2)cc1I | 196 | 1 µg/mL
Nc1ncnc2c1ncn2[C@H]1C[C@@H](CO)[C@H](O)[C@@H]1O |  | >400 µg/mL
COc1ccc2[nH]c3c(c2c1)CCN1OCSCC(N)[C@@H]31 | G | 0.02 µg/mL
CSCc1cn([C@H]2C[C@H](O)[C@@H](CO)O2)c(=O)[nH]c1=O | VDX192 | 10 µg/mL
O=c1[nH]c(=O)n([C@H]2C[C@H](O)[C@@H](CO)O2)cc1CCCl | G | <2.1 µg/mL
Nc1nc2c(nc(N)n2COCCO)c(=O)[nH]1 |  | 0.3 µg/mL
Nc1nc(=O)n([C@@H]2O[C@H](CO)[C@@H](O)[C@@H]2F)cc1I | G | <0.03 µg/mL
O=c1[nH]c(=O)n([C@H]2C[C@H](O)[C@@H](CO)O2)cc1I | VCX210 | 0.3 µg/mL
CCc1cn([C@H]2C[C@H](O)[C@@H](CO)O2)c(=O)[nH]c1=O | G | 0.7 µg/mL
O=c1[nH]c(=O)n([C@H]2C[C@H](O)[C@@H](COP(=O)([O-])OP(=O)([O-])OC[C@@H]3OC(O)[C@H](O)[C@H](O)[C@H]3O)O2)cc1I | 196 | 2 µg/mL
O=c1[nH]c(=O)n([C@@H]2OC3COP(=O)(O)OC3[C@H]2O)cc1I | G | >400 µg/mL
O=c1[nH]c(=O)n(COCCO)cc1Br |  | >400 µg/mL
Nc1nc(=O)c(/C=C/Br)cn1[C@H]1C[C@H](O)[C@@H](CO)O1 | G | 150 µg/mL
Nc1ccn([C@@H]2C=C(CO)[C@@H](O)[C@H]2O)c(=O)n1 | G | 200 µg/mL
O=c1[nH]c(=O)n([C@H]2C[C@H](O)[C@@H](COP(=O)(O)O)O2)cc1I | G | 2 µg/mL
O=c1[nH]c(=O)n([C@H]2C[C@H](O)[C@@H](COP(=O)(O)O)O2)cc1/C=C/c1cccc([N+](=O)[O-])c1 | LYONS | >100 µg/mL
N=C(N)CCNC(=O)c1c[nH]c(NC(=O)c2c[nH]c(NC(=O)c3ccc(CC(=O)Nc4c[nH]c(C(=O)Nc5c[nH]c(C(=O)NCCC(=N)N)c5)c4)cc3)c2)c1 |  | 10 µg/mL
Nc1nc2c(ncn2COCCO)c(=O)[nH]1 | G | 0.04 µg/mL
C=CCc1nc(C)n2c(=O)[nH]c(=S)[nH]c12 | G | >40 µg/mL
Nc1ccn(COCCO)c(=O)n1 |  | 100 µg/mL
O=c1[nH]c(=O)n(C2CC(CO)[C@@H](O)C2)cc1/C=C/Br | LYONS | 20 µg/mL
O=c1[nH]c(=O)n([C@H]2C[C@H](O)[C@@H](CO)O2)cc1/C=C/Br | G | 1.4 µg/mL
O=Cc1cn([C@H]2C[C@H](O)[C@@H](CO)O2)c(=O)[nH]c1=O | 196 | 1 µg/mL
Cc1cn([C@@H]2O[C@H](CO)[C@@H](O)[C@@H]2F)c(=O)[nH]c1=O | G | <0.02 µg/mL
O=c1[nH]c(=O)n(COCCO)cc1F |  | >400 µg/mL
COc1nc(=O)n([C@H]2C[C@H](O)[C@@H](CO)O2)cc1/C=C/Cl | G | 20 µg/mL
[N-]=[N+]=Nc1cccc(/C=C/c2cn([C@H]3C[C@H](O)[C@@H](COP(=O)(O)O)O3)c(=O)[nH]c2=O)c1 | LYONS | >200 µg/mL
O=c1[nH]c(=O)n([C@@H]2C[C@H](CO)[C@@H](O)C2)cc1/C=C/Br | G | 7 µg/mL
CNc1nc2c(=O)[nH]c(N)nc2n1COCCO |  | 3 µg/mL
CCc1cn([C@H]2C[C@H](O)[C@@H](CO)O2)c(=O)[nH]c1=O | G | 0.07 µg/mL
N=C(N)CCNC(=O)c1c[nH]c(NC(=O)c2c[nH]c(NC(=O)CC(=O)Nc3c[nH]c(C(=O)Nc4c[nH]c(C(=O)NCCC(=N)N)c4)c3)c2)c1 |  | 4 µg/mL
CS(=O)(=O)Cc1cn([C@H]2C[C@H](O)[C@@H](CO)O2)c(=O)[nH]c1=O | LYONS G 196 | >400 µg/mL
N=C(N)CCNC(=O)c1c[nH]c(NC(=O)c2c[nH]c(NC(=O)/C=C/C(=O)Nc3c[nH]c(C(=O)Nc4c[nH]c(C(=O)NCCC(=N)N)c4)c3)c2)c1 |  | 10 µg/mL
CCc1cn([C@H]2C[C@H](O)[C@@H](CO)O2)c(=O)[nH]c1=O | 196 | 4 µg/mL
Nc1nc2c(nc(Cl)n2COCCO)c(=O)[nH]1 |  | >400 µg/mL
Nc1ncnc2c1ncn2[C@@H]1O[C@H](CO)[C@@H](O)[C@H]1OP(=O)(O)OC[C@H]1O[C@@H](n2cnc3c(N)ncnc32)[C@H](OP(=O)(O)OC[C@H]2O[C@@H](n3cc(F)c(=O)[nH]c3=O)C[C@@H]2O)[C@@H]1O | LYONS | >100 µg/mL
O=c1[nH]c(=O)n([C@@H]2O[C@H](CO)[C@@H](O)[C@@H]2O)cc1/C=C/Br | G | 15 µg/mL
Nc1ncnc2c1ncn2[C@@H]1C[C@H](CO)[C@@H](O)[C@H]1O |  | 2 µg/mL
Nc1nc2c(ncn2COCCO)c(=O)[nH]1 | LYONS | 0.07 µg/mL

Again, the opening 4 rows:

{"compound": "[N-]=[N+]=NCc1cn([C@H]2C[C@H](O)[C@@H](CO)O2)c(=O)[nH]c1=O", "strain": "G", "value": "10 µg/mL"}
{"compound": "C=CCc1nc(C)n2c(=O)[nH]cnc12", "strain": "G", "value": ">100 µg/mL"}
{"compound": "[N-]=[N+]=N[C@H]1[C@@H](F)[C@H](n2cnc3c(N)ncnc32)O[C@@H]1CO", "strain": "G", "value": ">200 µg/mL"}
{"compound": "O=c1[nH]c(=O)n([C@@H]2O[C@H](CO)[C@@H](O)[C@@H]2F)cc1I", "strain": "G", "value": "<0.02 µg/mL"}